According to paper PMC7954794, “Protein context shapes the specificity of SH3 domain-mediated interactions in vivo” (Nature Communications, 2021):
Some results come without the dose or concentration used.

B1: YDL065C (protein, UniProt Q07418 1-339, looked up)
Peroxisomal membrane protein …: MNENEYDNFDDLDDLLDEDPTKLDEAEPDDVQAKGSVYNDSENKEKNAESKDSDGVQVANESEEDPELKEMMVDLQNEFANLMKNNGNENNVKTEDFNKLISALEEAAKVPHQQMEQGCSSLKSNSTDKGTVNGSNPGFKNIVSNTLDRLKENGNKVDTSLAEETKESQRSGQNNNIDDILSQLLDQMVASGGKESAENQFDLKDGEMDDAITKILDQMTSKEVLYEPMKEMRSEFGVWFQENGENEEHKEKIGTYKRQFNIVDEIVNIYELKDYDELKHKDRVTELLDELEQLGDSPIRSANSPLKHGNEEEELMKMLEIDGNDPNLGNLDKELTDGC
B2: YOL147C (protein, UniProt Q12462 2-236, looked up)
Peroxisomal membrane protein …: VCDTLVYHPSVTRFVKFLDGSAGREKVLRLLQYLARFLAVQNSSLLARQLQAQFTTVRKFLRFLKPLNHLQAAAKFYDNKLASDNVVRVCNVLKNIFFAAYLSLDQVNLLRILKVIPVTVLTGKKIPRWSNWCWLFGLLSGLAMDLRKIQTSHAQIAAFVKAKSQSQGDEHEDHKKVLGKAYQDRYTALRRLFWDAADSFIVLNNLGYLSSNEEYVALSGVVTSILGMQDMWKAT
B3: YAL041W (protein, UniProt P11433 1-854, looked up)
Cell division control protein …: MAIQTRFASGTSLSDLKPKPSATSISIPMQNVMNKPVTEQDSLFHICANIRKRLEVLPQLKPFLQLAYQSSEVLSERQSLLLSQKQHQELLKSNGANRDSSDLAPTLRSSSISTATSLMSMEGISYTNSNPSATPNMEDTLLTFSMGILPITMDCDPVTQLSQLFQQGAPLCILFNSVKPQFKLPVIASDDLKVCKKSIYDFILGCKKHFAFNDEELFTISDVFANSTSQLVKVLEVVETLMNSSPTIFPSKSKTQQIMNAENQHRHQPQQSSKKHNEYVKIIKEFVATERKYVHDLEILDKYRQQLLDSNLITSEELYMLFPNLGDAIDFQRRFLISLEINALVEPSKQRIGALFMHSKHFFKLYEPWSIGQNAAIEFLSSTLHKMRVDESQRFIINNKLELQSFLYKPVQRLCRYPLLVKELLAESSDDNNTKELEAALDISKNIARSINENQRRTENHQVVKKLYGRVVNWKGYRISKFGELLYFDKVFISTTNSSSEPEREFEVYLFEKIIILFSEVVTKKSASSLILKKKSSTSASISASNITDNNGSPHHSYHKRHSNSSSSNNIHLSSSSAAAIIHSSTNSSDNNSNNSSSSSLFKLSANEPKLDLRGRIMIMNLNQIIPQNNRSLNITWESIKEQGNFLLKFKNEETRDNWSSCLQQLIHDLKNEQFKARHHSSTSTTSSTAKSSSMMSPTTTMNTPNHHNSRQTHDSMASFSSSHMKRVSDVLPKRRTTSSSFESEIKSISENFKNSIPESSILFRISYNNNSNNTSSSEIFTLLVEKVWNFDDLIMAINSKISNTHNNNISPITKIKYQDEDGDFVVLGSDEDWNVAKEMLAENNEKFLNIRLY
B4: YLR191W (protein)
chain: EFARALYDFVPENPEMEVALKKGDLMAILSKKDPLGRDSDWWKVRTKNGNIGYIPYNYIEIIK
B5: YER114C (protein)
chain: PMYIAINEYFKRMEDELDMKPGDKIKVITDDEEYKDGWYFGRNLRTNEEGLYPVVFTQKIT
B6: YDR379W (protein, UniProt Q06407 1-1009, looked up)
Rho-type GTPase-activating …: MSADPINDQSSLCVRCNKSIASSQVYELESKKWHDQCFTCYKCDKKLNADSDFLVLDIGTLICYDCSDKCTNCGDKIDDTAIILPSSNEAYCSNCFRCCRCSNRIKNLKYAKTKRGLCCMDCHEKLLRKKQLLLENQTKNSSKEDFPIKLPERSVKRPLSPTRINGKSDVSTNNTAISKNLVSSNEDQQLTPQVLVSQERDESSLNDNNDNDNSKDREETSSHARTVSIDDILNSTLEHDSNSIEEQSLVDNEDYINKMGEDVTYRLLKPQRANRDSIVVKDPRIPNSNSNANRFFSIYDKEETDKDDTDNKENEIIVNTPRNSTDKITSPLNSPMAVQMNEEVEPPHGLALTLSEATKENNKSSQGIQTSTSKSMNHVSPITRTDTVEMKTSTSSSTLRLSDNGSFSRPQTADNLLPHKKVAPSPNKKLSRSFSLKSKNFVHNLKSKTSEMLDPKHPHHSTSIQESDTHSGWGVSSTHTNIRKSKAKKNPVSRGQSDSTIYNTLPQHGNFTVPEFNHKKAQSSLGSISKKQNSNDTATNRRINGSFTSSSSGHHIAMFRTPPLESGPLFKRPSLSSESAHHRSSSLQTSRSTNALLEDDSTKVDATDESATSLEKDFYFTELTLRKLKLDVRELEGTKKKLLQDVENLRLAKERLLNDVDNLTREKDKQSASSRESLEQKENIATSITVKSPSSNSDRKGSISNASPKPRFWKIFSSAKDHQVGDLESQQRSPNSSSGGTTNIAQKEISSPKLIRVHDELPSPGKVPLSPSPKRLDYTPDGSHLYGSSLQARCAYEKSTVPIIIRCCIDRIEKDDIGLNMEGLYRKSGSQTLVEEIENEFAQNNSLHSDTLSPKLNALLNQDIHAVASVLKRYLRKLPDPVLSFSIYDALIDLVRNNQLIERLPLNNDKFLDSPQKVTIYEMVLKSLLEIFKILPVEHQEVLKVLAAHIGKVRRCSERNLMNLHNLSLVFAPSLIHDFDGEKDIVDMKERNYIVEFILGNYRDIFKQA
B7: YDR166C (protein, UniProt P89102 1-971, looked up)
Exocyst complex component SEC5: MDRFQIGDEQLLRFYQLKTINPTHSWAQDSSKLNNEEATSNELGVETSFDILKDFKYGNQISIDKESRAYLNDESLSYIRDPLNGQEMSKELQHLPNDSMRLNYLVNSKQFNVKAFLRDMHKQDSFNDLNNSLDRLDSDIQDQSIHLKQLVGKNFTKYVKIKNKLDQIYKEFDEKTNEKNQCDSPKENQINVESLNKKVDEVIRTTTFKLKPLMDNYQKILNYQATKKFIELNKFYFNLPKSLKRCLTNNDFNEFIIEYSKGLTLRRRFNQSSDASQSLVIKRIWTQIENLLVTYKDLIWNSLINSNFNIDQPQETILSLFSKLLNLENFINNNQRESESGNKNTTSSSNENPILRWMSIKMNGFQNELNELSGHMISKIIHSQRLILQNNTNQDKSQGCVELSYYLKINQLFQIISDTGKDSEGLKSTVEPNKVNTISGTSYLNLNCQPSSQGLTDSPTIIEMWLLILKYINDLWKICDQFIEFWEHIEKFLDGTYQNSIINEKRKENILIGDSNIIESYQKSLILKEEQINEVRLKGEEFITSVSQNLISFFTSSQSSLPSSLKDSTGDITRSNKDSGSPLDYGFIPPNCNGLSCLRYLPKIVEPILKFSTELAQLNITTNGITICRNTLSTIINRCVGAISSTKLRDISNFYQLENWQVYETVTFSSKSQDSSKNLTFEYGVTQFPEIVTSFQEVSIKTTRDLLFAYEKLPIINGISVVSYPSKQLLTGIEIQQIISMEAVLEAILKNAAKDKDNPRNSHTILTLTNLQYFRECAFPNILQYFDDAFEWNLASKNLELFSLLSKMESSIFGNYLSDLKINLRDTLEEKFHEINWPMYTSNSFRVGDYIIEALMILIVVHSECFRIGPQLIHKILIETQIFIARYLFEAFKPYVGNLSNDGSLQIIVDLEFFQKVMGPLLEKDTEATLRACLQNCFQNDTNRLQKCINEINPIVSANLKRTAIQFAAFS
B8: YGL153W (protein, UniProt P53112 2-341, looked up)
Peroxisomal membrane protein …: SDVVSKDRKALFDSAVSFLKDESIKDAPLLKKIEFLKSKGLTEKEIEIAMKEPKKDGIVGDEVSKKIGSTENRASQDMYLYEAMPPTLPHRDWKDYFVMATATAGLLYGAYEVTRRYVIPNILPEAKSKLEGDKKEIDDQFSKIDTVLNAIEAEQAEFRKKESETLKELSDTIAELKQALVQTTRSREKIEDEFRIVKLEVVNMQNTIDKFVSDNDGMQELNNIQKEMESLKSLMNNRMESGNAQDNRLFSISPNGIPGIDTIPSASEILAKMGMQEESDKEKENGSDANKDDNAVPAWKKAREQTIDSNASIPEWQKNTAANEISVPDWQNGQVEDSIP
B9: YDR329C (protein, UniProt P28795 1-441, looked up)
Peroxisomal biogenesis factor …: MAPNQRSRSLLQRHRGKVLISLTGIAALFTTGSVVVFFVKRWLYKQQLRITEQHFIKEQIKRRFEQTQEDSLYTIYELLPVWRMVLNENDLNLDSIVTQLKDQKNQLTRAKSSESRESSPLKSKAELWNELELKSLIKLVTVTYTVSSLILLTRLQLNILTRNEYLDSAIKLTMQQENCNKLQNRFYNWVTSWWSDPEDKADDAMVMAAKKSKKEGQEVYINEQAFLSLSWWILNKGWLSYNEIITNQIEIEFDGIHPRDTLTLEEFSSRLTNIFRNTNSQIFQQNNNNLTSILLPKDSSGQEFLLSQTLDADALTSFHSNTLVFNQLVNELTQCIESTATSIVLESLINESFHFIMNKVGIKTIAKKKPGQEDQQQYQMAVFAMSMKDCCQEMLQTTAGSSHSGSVNEYLATLDSVQPLDDLSASVYSNFGVSSSFSFKP

Test system: ABP1
Test: DHFR-PCA on solid medium, bait ABP1 (Fig. 1B)
Type: cell-based, Saccharomyces cerevisiae
Parameters: key: 0: SH3-independent; 1: SH3-dependent PPIs; 2: SH3-inhibited PPIs
Conditions: bait ABP1, label = prey
Text: (§1) Supplement 41467_2021_21873_MOESM8_ESM.xlsx, sheet "Fig1B" | column: medsize; medrep; Ratio; Score

Row | Molecule | Score
1 | B1 | 2

Test system: BEM1-1
Test: DHFR-PCA on solid medium, bait BEM1-1 (Fig. 1B)
Type: cell-based, Saccharomyces cerevisiae
Parameters: key: 0: SH3-independent; 1: SH3-dependent PPIs; 2: SH3-inhibited PPIs
Conditions: bait BEM1-1, label = prey
Text: as §1

Row | Molecule | Score
2 | B2 | 2
3 | B3 | 0
4 | B4 | 2
5 | B5 | 0
6 | B6 | 0
7 | B7 | 0
8 | B8 | 2
9 | B1 | 2
10 | B9 | 2

Test system: BEM1-2
Test: DHFR-PCA on solid medium, bait BEM1-2 (Fig. 1B)
Type: cell-based, Saccharomyces cerevisiae
Parameters: key: 0: SH3-independent; 1: SH3-dependent PPIs; 2: SH3-inhibited PPIs
Conditions: bait BEM1-2, label = prey
Text: as §1

Row | Molecule | Score
11 | B3 | 0
12 | B5 | 1
13 | B6 | 1
14 | B7 | 1
